Laboratory results published in the supplement of paper PMC9931576.
Human monoclonal antibodies against the spike receptor-binding domain (heavy:light variable regions). IC50 against pseudoviruses bearing the spike of naturally observed variants; lower = stronger; >10 µg/ml means not reached at the top dose. No active / inactive call. The stated detection limit is 0.0005 µg/ml; values near or below 0.001 µg/ml lie at the floor of the assay.

B1: BD55-4343 (protein)
chain 1: QVQLEESGPGLVKPSQILSLTCTVSGGAISSVSYCWSWIRQPAGRGLEWIGHVCSSDNINSNPSLKSRVTISVDTSKNQFSLKMTSVTAADTAVYYCARSTGDYEFDYWGQGTLVTVSS
chain 2: DIQMTQSPPTLSASVGDRVTITCRASQSIGRWLAWYQQKPGKAPKLLIYKASILESGVPSRFSGSGSGTEFTLSFSSLQPDDFATYYCQQYNSYPPTFGGGTKVDIK
B2: BD55-4344 (protein)
chain 1: EVQLLESGGGLVQPGGSLRLSCAASGFTFDHYAMSWVRQAPGKGLEWVSAISGSGGSTSYSDSVKGRFTISRDNSKNTLFLQMNSLRAEDTAVYYCAKRSGWARRAPGGGDYWGQGTLVTVSS
chain 2: DIQMTQSPSSLSASVGDRVTITCQASQDISNYLNWYQQKPGKAPKLLIYDASNLETGVPSRFSGSGSGTDFTFTISSLQPEDIATYFCQQYDSLPESFGPGTKMDIK
B3: BD55-4345 (protein)
chain 1: QVQLVQSGAEVKKPGSSVKVSCKASAGTFSSNAISWVRQAPGQGLEWLGRIIPIFGTSTYAQNFQGRITMTADESTGTAYMEMSRLTSEDTAVYYCARAGVLGGAGSYYVVDYWGQGSLVTVSS
chain 2: NFMLTQPHSVSESPGKTVTISCTRSRGSIDSEYVQWYQQRPGSAPTTVIYEHNQTPSGVPDRFSGSIDTSSNSASLTISGLKTEDEAHYYCQSFDGSSQAWVFGGGTKLTVL
B4: BD55-4348 (protein)
chain 1: QVQLVESGGGVVQPGRSLRLSCAASGFTFRSYSMQWVRQAPGEGLEWVAILSYDGIIEYYSDSVKGRFTVSRDNSKNTLYLQMNSLRTEDTAIYYCARGSSSWSEDNWFDPWGQGTLVTVSS
chain 2: SYVLTQPPSVSVAPGKTARITCGGDNIGSYSVHWYQQKPGQAPVLVVYDDNDRPSGIPERFSGSNSGNTATLTIGRVEAGDEADYYCQVWDSRSDHYVFGIGTKVTVL
B5: BD55-4356 (protein)
chain 1: QVQLEESGPGLVKPSQILSLTCSVSGGSISSVSYCWSWIRQPAGKGLEWIGHMCSSGNTDSNPSLKSRVSISLDTSKNQFSLKMSSVTAADTAVYYCARSTGDYEFDYWGQGTLVTVSS
chain 2: DIQMTQSPPTLSASVGDRVTITCRASQSISRWLAWYQQKPGRAPKLLIYKASILESGVPSRFSGSGSGTEFTLSFSSLQPDDFATYYCQQYNNYPPTFGGGTKVEIK
B6: BD55-4358 (protein)
chain 1: EVQLVQSGAEVKKPGESLRISCKGSGYSFTSYWISWVRQMPGKGLEWMGRIDPSDSYTKYSPSFQGHVTISVDKSISTAHLQWSSLKASDTAMYYCARHEKHYYDRSGDYPHAEYFQYWGQGTLITVSS
chain 2: EIVLTQSPGTLSLSPGERATLSCRASQSVSNNYLAWYQQKPGQAPRLLISGVSSRATGIPDRFSGSASGTDFTLTISRLEPEDFAVYYCQQYGSSSPMYTFGQGTKLEIK

Target: SARS-CoV-2 Omicron BA.1 spike pseudovirus
Experiment: pseudovirus neutralization IC50; higher = weaker neutralization
Protocol: (§1)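 Single-round VSV luciferase pseudovirus mixed with antibody dilutions for 1 h and put on Huh-7 cells for about a day; IC50 from the dose curve.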

Row | Binder | pseudovirus neutralization IC50 [µg/mL]
1 | B1 | 2.33
2 | B2 | > 10
3 | B3 | > 10
4 | B4 | > 10
5 | B5 | > 10
6 | B6 | 0.649

Target: SARS-CoV-2 Omicron BA.2 spike pseudovirus
Experiment: as above
Protocol: as §1

Row | Binder | pseudovirus neutralization IC50 [µg/mL]
7 | B1 | > 10
8 | B2 | > 10
9 | B3 | > 10
10 | B4 | > 10
11 | B5 | > 10
12 | B6 | > 10

Target: SARS-CoV-2 Omicron BA.2.75 spike pseudovirus
Experiment: as above
Protocol: as §1

Row | Binder | pseudovirus neutralization IC50 [µg/mL]
13 | B1 | > 10
14 | B2 | > 10
15 | B3 | > 10
16 | B4 | > 10
17 | B5 | > 10
18 | B6 | > 10

Target: SARS-CoV-2 Omicron BA.5 spike pseudovirus
Experiment: as above
Protocol: as §1

Row | Binder | pseudovirus neutralization IC50 [µg/mL]
19 | B1 | > 10
20 | B2 | > 10
21 | B3 | > 10
22 | B4 | > 10
23 | B5 | > 10
24 | B6 | > 10

Target: SARS-CoV-2 Omicron BQ.1.1 spike pseudovirus
Experiment: as above
Protocol: as §1

Row | Binder | pseudovirus neutralization IC50 [µg/mL]
25 | B1 | > 10
26 | B2 | > 10
27 | B3 | > 10
28 | B4 | > 10
29 | B5 | > 10
30 | B6 | > 10

Target: SARS-CoV-2 Omicron XBB spike pseudovirus
Experiment: as above
Protocol: as §1

Row | Binder | pseudovirus neutralization IC50 [µg/mL]
31 | B1 | > 10
32 | B2 | > 10
33 | B3 | > 10
34 | B4 | > 10
35 | B5 | > 10
36 | B6 | > 10

Target: SARS-CoV-2 early D614G spike pseudovirus
Experiment: as above
Protocol: as §1

Row | Binder | pseudovirus neutralization IC50 [µg/mL]
37 | B1 | 2.51
38 | B2 | 5.8
39 | B3 | 0.245
40 | B4 | 0.302
41 | B5 | > 10
42 | B6 | 0.137
